In paper PMC8147501:
The exact form of at least one protein or probe is not confirmed. At least one verdict was read from the data and is not stated in words by the source. Where a protein sequence is shown, tags need not be part of it.

Target: T1, TcSgn1 (UniProt Q4DMU4)
T1 sequence (looked up, limits assumed): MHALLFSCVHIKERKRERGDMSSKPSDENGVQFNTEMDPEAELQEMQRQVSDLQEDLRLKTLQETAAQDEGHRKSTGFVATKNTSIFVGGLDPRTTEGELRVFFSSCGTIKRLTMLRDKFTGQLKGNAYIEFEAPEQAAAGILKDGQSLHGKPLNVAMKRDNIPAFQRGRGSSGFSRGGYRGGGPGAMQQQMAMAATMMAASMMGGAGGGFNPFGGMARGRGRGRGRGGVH
Assay: EMSA
Details: 1 mM Mg2+, 500 ng to 3 ug protein, 10 ng probe, unlabeled poly(A) as competitor; 10 mM Tris-HCl pH 7.4, 10 mM KCl, 1 mM MgCl2, 1 mM DTT, 200 ng/mL heparin, 100 mM spermidine, 50% glycerol; room temperature, 30 min; 5% native PAGE; recombinant protein

“AAAAAAAAAAAAAAAAAAAA [poly(A) 20-mer RNA probe]”: binds.
